## Primary screen of a compound library

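Phenotypic screen: M. tuberculosis growth, glucose 7H9 medium, 3 days; the read-out is not stated. Concentration: 500 µM. Direction is inferred from retests: higher values go with more growth inhibition. About 18,000 compounds were tested under these conditions; 7.9% (about 1,400) showed 50% or more at least once.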

The filed quantity is “Percent Effect” (%).
The controls that fix the scale are not given in the record; negative values are as filed.
This is part of a subset picked to be rich in strong results.

* CN(CCC(N)=O)Cc1ccc(Cl)s1 | 34.66%
* CC(=O)N1CCN(Cc2cc(Br)c3c(c2)OCO3)CC1 | 57.89%
* CC(C(N)=O)N1CCC(C(=O)NC2CCCCC2)CC1 (stereo not shown) | 10.23%
* CN1N=C(C(=O)NCc2csc(Br)c2)CCC1=O | 78.8%
* COc1cccc(C(CO)Nc2ncccc2C#N)c1 (stereo not shown) | 24.5%
* Cc1cccc(C(=O)NCc2cccc(O)c2)n1 | 63.22%
* CN(CCC(=O)Nc1ccccc1)CC(=O)N(C)C | 0.8091%
* CN(C)CCCNS(=O)(=O)Cc1ccccc1F | -5.108%
* CCCN(C(=O)c1cscn1)C1CCNCC1 | 7.021%
* O=C(Cc1ccc(F)c(F)c1)N1CCCO1 | 20.84%
* O=C1N(Cc2ccccc2)CCN1S(=O)(=O)Cl | 65.65%
* Nc1ncccc1C(=O)NC1CCCCC1 | 0.8156%
* COc1ncccc1CNS(=O)(=O)c1cccc(Cl)c1 | 71.16%
* COC(=O)c1ccc(CCNC(=O)C2CCCO2)cc1 (stereo not shown) | 64.63%
* COC(=O)Nc1ccc(C(=O)N2CCCC2)cc1 | -13.76%
* COc1ccc(C(=O)N(C)CCn2cccn2)cc1 | 76.82%
* CS(=N)(=O)c1ccccc1Br (stereo not shown) | 10.7%
* Cc1cnc(CCN)nc1 | 13.38%
* COc1cccc(S(=O)(=O)CCN(C)CCO)c1 | 96.44%
* CC(C)c1nnsc1C(=O)N[C@@H]1COCC[C@H]1O | 6.814%
* COC(=O)CNc1ccc(Cl)cc1C(N)=O | 32.32%
* CN(CC(N)=O)S(=O)(=O)c1ccc2c(c1)OCCO2 | 3.874%
* CCN(CC)C(=O)c1cc(O)nc2c(C)cccc12 | 0.8825%
* Cn1c(CCO)nc2ccccc21 | 13.59%
* CC(C(=O)NC1CCCC1)N1CCNCC1 (stereo not shown) | -0.8422%
* CC(C)CCC(=O)N1CCC(C)(CO)C1 (stereo not shown) | 14.47%
* CSCC(CCO)Nc1cc(C#N)c2ccccc2n1 (stereo not shown) | -6.82%
* CCn1ccc(CN2CCOC(CCOC)C2)n1 (stereo not shown) | 11.5%
* C[C@H](NC(=O)CSCc1ccccc1Cl)C(N)=O | 18.76%
* CN(C)c1ncccc1CNS(=O)(=O)c1cnn(C)c1 | -1.412%
* NCCCC(=O)Nc1cc(C(F)(F)F)c[nH]c1=O | 13.29%
* Cc1ccc(C2(O)CCNC2)cc1 (stereo not shown) | 70.89%
* NCC1CCN(C2CCCCC2)C1 (stereo not shown) | -2.531%
* CCC(CC)(CO)NCCn1cc(Br)cn1 | -1.142%
* CCCNC(=O)c1nnn(-c2ccccc2OC)c1C | 78.8%
* CNC(=O)c1cccc(NCc2nc(C)cs2)n1 | -11.86%
* COCC(NC(=O)CNc1ccccc1)C(C)C (stereo not shown) | 26.53%
* CN1CCOC(C(=O)Nc2ncc(Cl)s2)C1 (stereo not shown) | 54.09%
* CCCN(Cc1cc(OC)ccn1)C1CCS(=O)(=O)C1 (stereo not shown) | 3.254%
* O=c1oc2ccccc2n1CC1CCOC1 (stereo not shown) | 22.1%
* COc1ccccc1CN1CCC(N)CC1 | 62.09%
* COC(C)(C)CNc1ccc(OC(F)F)cn1 | 31.47%
* O=C(NCCn1cccc1)c1ccc(Cl)cn1 | 85.22%
* CC(C)=CCO[C@@H]1COCC[C@H]1NS(=O)(=O)C1CC1 | 18.02%
* CN1CCN(C(=O)Cc2ccccc2)CC1 | 13.95%
* Cc1ccc(C(C)C)c(OCC(O)CNCCO)c1 (stereo not shown) | 82.09%
* COc1cc(CN2CCNCC2)cc(OC)c1 | 32.94%
* CC(C)NC(=O)N(C)Cc1cccc(C(N)=O)c1 | 11.11%
* Cc1ccc(S(=O)(=O)NCc2nnc(N)s2)cc1 | 25.77%
* Cc1nc[nH]c1CN1CCC(CN2CCOCC2)CC1 | 7.049%
* CN(C)C(=O)OC1CCNC1 (stereo not shown) | 2.913%
* CC(C)N(Cc1ccccn1)C(=O)c1cc(Cl)c[nH]1 | 55.33%
* Cc1cc(NC(=O)CN(C)C)ccc1OCCO | 19.64%

Repeated from the top, 4 entries:

- CN(CCC(N)=O)Cc1ccc(Cl)s1 : 34.66%
- CC(=O)N1CCN(Cc2cc(Br)c3c(c2)OCO3)CC1 : 57.89%
- CC(C(N)=O)N1CCC(C(=O)NC2CCCCC2)CC1 (stereo not shown) : 10.23%
- CN1N=C(C(=O)NCc2csc(Br)c2)CCC1=O : 78.8%

Source: ChEMBL document CHEMBL3988442, “University of Dundee, Small-Polar-MMV Screening Library” (2021).